The data set can be described thus: Whole-cell saturation radioligand binding. The arrangement: species or system Saccharomyces cerevisiae.

B1: TGRIA: Variant GRIA (T88/Q89G/W246R/L249I/H250A) of human adenosine A2a receptor (protein, UniProt P29274 1-412, looked up, variant Q89G W246R L249I H250A)
Adenosine receptor A2a: MPIMGSSVYITVELAIAVLAILGNVLVCWAVWLNSNLQNVTNYFVVSLAAADIAVGVLAIPFAITISTGFCAACHGCLFIACFVLVLTGSSIFSLLAIAIDRYIAIRIPLRYNGLVTGTRAKGIIAICWVLSFAIGLTPMLGWNNCGQPKEGKNHSQGCGEGQVACLFEDVVPMNYMVYFNFFACVLVPLLLMLGVYLRIFLAARRQLKQMESQPLPGERARSTLQKEVHAAKSLAIIVGLFALCRLPIAIINCFTFFCPDCSHAPLWLMYLAIVLSHTNSVVNPFIYAYRIREFRQTFRKIIRSHVLRQQEPFKAAGTSARVLAAHGSDGEQVSLRLNGHPPGVWANGSAPHPERRPNGYALGLVSGGSAQESQGNTGLPDVELLSHELKGVCPEPPGLDDPLAQDGAGVS
As for B1, the “functional yield (Bmax) relative to wild-type A2aR” value came to 1.2 fold.

B2: TAWLH: single-residue mutant Q89A of A2aR, positive control reported to exhibit improved binding affinity to NECA (protein, UniProt P29274 1-412, looked up, variant Q89A)
Adenosine receptor A2a: MPIMGSSVYITVELAIAVLAILGNVLVCWAVWLNSNLQNVTNYFVVSLAAADIAVGVLAIPFAITISTGFCAACHGCLFIACFVLVLTASSIFSLLAIAIDRYIAIRIPLRYNGLVTGTRAKGIIAICWVLSFAIGLTPMLGWNNCGQPKEGKNHSQGCGEGQVACLFEDVVPMNYMVYFNFFACVLVPLLLMLGVYLRIFLAARRQLKQMESQPLPGERARSTLQKEVHAAKSLAIIVGLFALCWLPLHIINCFTFFCPDCSHAPLWLMYLAIVLSHTNSVVNPFIYAYRIREFRQTFRKIIRSHVLRQQEPFKAAGTSARVLAAHGSDGEQVSLRLNGHPPGVWANGSAPHPERRPNGYALGLVSGGSAQESQGNTGLPDVELLSHELKGVCPEPPGLDDPLAQDGAGVS
modifications: decahistidine tag
Turning to B2, the “functional yield (Bmax) relative to wild-type A2aR” value was 1.4–1.7 fold.

B3: TSWLH: single-residue mutant Q89S of A2aR, the most abundant variant in PS4 (protein, UniProt P29274 1-412, looked up, variant Q89S)
Adenosine receptor A2a: MPIMGSSVYITVELAIAVLAILGNVLVCWAVWLNSNLQNVTNYFVVSLAAADIAVGVLAIPFAITISTGFCAACHGCLFIACFVLVLTSSSIFSLLAIAIDRYIAIRIPLRYNGLVTGTRAKGIIAICWVLSFAIGLTPMLGWNNCGQPKEGKNHSQGCGEGQVACLFEDVVPMNYMVYFNFFACVLVPLLLMLGVYLRIFLAARRQLKQMESQPLPGERARSTLQKEVHAAKSLAIIVGLFALCWLPLHIINCFTFFCPDCSHAPLWLMYLAIVLSHTNSVVNPFIYAYRIREFRQTFRKIIRSHVLRQQEPFKAAGTSARVLAAHGSDGEQVSLRLNGHPPGVWANGSAPHPERRPNGYALGLVSGGSAQESQGNTGLPDVELLSHELKGVCPEPPGLDDPLAQDGAGVS
On to B3, for which the “functional yield (Bmax) relative to wild-type A2aR” value is on record as 1.4–1.7 fold.

These data come from paper PMC7000732, “Bridging non-overlapping reads illuminates high-order epistasis between distal protein sites in a GPCR” (Nature Communications, 2020).
